Source: patent publication USRE49949E1, “Reducing risk of contracting clostridium-difficile associated disease” (The Board of Regents of the Nevada System of Higher …, priority 2012, dated 2024)
Read-outs that look alike come from different tables or passages of the source.

Tested on: C. difficile spores
Assay: Activation of C. difficile spore germination by amino acid analogs with taurocholate
Format: cell-based, Clostridium difficile strain 630
[1] = 12 mM amino acid analog with 6 mM taurocholate

Row | Structure (SMILES) | activity as co-germinant / agonist of spore germination [1] | activity as co-germinant / agonist of spore germination
1 | C[N+](C)(C)CC(=O)O [Compound A13, betaine, reference compound] | neither activate nor inhibit | 
2 | N[C@@H](Cc1c[nH]cn1)C(=O)O [Compound A29, L-histidine] | could not efficiently activate | 
3 | N[C@@H](CO)C(=O)O [Compound A24, L-serine] | almost inactive | 
4 | CCOC(=O)CN [Compound A06, glycine ethyl ester, reference compound] | unable to activate or inhibit | 
5 | CC[C@H](C)[C@H](N)C(=O)O [Compound A21, L-isoleucine] | poor germinants | 
6 | NCC(N)=O [Compound A07, glycinamide, reference compound] | unable to activate or inhibit | 
7 | CC(C)C[C@H](N)C(=O)O [Compound A22, L-leucine] | poor germinants | 
8 | CNCC(=O)O [Compound A11, sarcosine, reference compound] | neither activate nor inhibit | 
9 | N[C@@H](Cc1ccccc1)C(=O)O [Compound A26, L-phenylalanine] | as effective as glycine | 
10 | CN(C)CC(=O)O [Compound A12, N,N-dimethylglycine, reference compound] | neither activate nor inhibit | 
11 | CSCC[C@H](N)C(=O)O [Compound A25, L-methionine] | poor germinant | 
12 | NCCC(=O)O [Compound A02, β-Alanine] | as effective as glycine | 
13 | N[C@@H](CS)C(=O)O [Compound A23, L-cysteine] | good germinant | 
14 | CC[C@H](N)C(=O)O [Compound A18, L-2-aminobutyric acid] | able to activate germination to levels similar to glycine | 
15 | CCC[C@H](N)C(=O)O [Compound A19, L-norvaline] | able to activate germination to levels similar to glycine | 
16 | NCCCC[C@H](N)C(=O)O [Compound A28, L-lysine] | weak germinant | 
17 | NCC(=O)OC(=O)CN [Compound A10, glycine anhydride, reference compound] | unable to activate or inhibit | 
18 | NCC(=O)NO [Compound A08, glycine hydroxamate, reference compound] |  | unable to activate or inhibit
19 | C[C@@H](N)C(=O)O [Compound A17, D-alanine, reference compound] | inactive as an agonist | 
20 | C[C@H](N)C(=O)O [Compound A16, L-alanine] | as efficient at triggering germination as glycine | 
